Measured values from several laboratories, pooled; numbers as filed in NIAID ChemDB.

All rows: tests in culture; agent: Mycobacterium fortuitum

Conditions beyond the fields shown may differ between rows. An empty or dashed field is not shown. MIC50, MIC90 and the like: level of inhibition, or share of isolates inhibited.

NC[C@H]1O[C@H](O[C@H]2[C@H](O)[C@@H](O[C@H]3O[C@H](CO)[C@@H](O)[C@H](N)[C@H]3O)[C@H](N)C[C@@H]2N)[C@H](O)[C@@H](O)[C@@H]1O ; measure: MIC90 ; strain: 31 isolates ; result: >64 µg/mL
CN(C)C(=O)CC(CSc1ccccc1)Nc1c(C(=O)N/N=C/c2cc(F)ccc2O)cnc2cccc(C(F)(F)F)c12 ; measure: MIC ; strain: ATCC 19542 ; read by: resazurin ; result: >100 µg/mL
C[C@H]1C[C@H](N)CN1c1cc2c(cc1F)c(=O)c(C(=O)O)cn2-c1ccc(F)cc1F ; measure: MIC ; strain: ATCC 6841 ; result: 8 µg/mL
CN[C@@H]1[C@H](O[C@H]2[C@H](O[C@H]3[C@H](O)[C@@H](O)[C@H](N=C(N)N)[C@@H](O)[C@@H]3N=C(N)N)O[C@@H](C)[C@]2(O)C=O)O[C@@H](CO)[C@H](O)[C@H]1O ; measure: MBC90 ; strain: 31 isolates ; result: >64 µg/mL
CO[C@@]1(NC(=O)C(C(=O)O)c2ccc(O)cc2)C(=O)N2C(C(=O)O)=C(CSc3nnnn3C)CO[C@@H]21 ; measure: MIC ; strain: 1049 ; result: 50 µg/mL
COc1ccc(/C=N/NC(=O)c2cnc3cccc(C(F)(F)F)c3c2NC(CSc2ccccc2)CC(=O)N(C)C)cc1 ; measure: MIC ; strain: ATCC 19542 ; read by: resazurin ; result: >100 µg/mL
CO[C@@]1(NC(=O)C2SC(=C(C(N)=O)C(=O)[O-])S2)C(=O)N2C(C(=O)[O-])=C(CSc3nnnn3C)CS[C@@H]21 ; measure: MIC ; strain: 1059 ; result: 100 µg/mL
CC1CN(c2cc3c(cc2F)c(=O)c(C(=O)O)cn3-c2ccc(F)cc2F)CCN1 ; measure: MBC ; strain: ATCC 6841 ; result: 8 µg/mL
NC[C@H]1O[C@H](O[C@H]2[C@H](O)[C@@H](O[C@H]3O[C@H](CO)[C@@H](O)[C@H](N)[C@H]3O)[C@H](N)C[C@@H]2N)[C@H](N)C[C@@H]1O ; measure: MIC90 ; strain: 31 isolates ; result: >64 µg/mL
CO[C@@]1(NC(=O)CCCC(N)C(=O)O)C(=O)N2C(C(=O)O)=C(COC(N)=O)CSC21 ; measure: MIC ; strain: 1030-8 ; result: >100 µg/mL
CN(C)C(=O)CC(CSc1ccccc1)Nc1c(C(=O)N/N=C/c2ccc(F)cc2)cnc2cccc(C(F)(F)F)c12 ; measure: MIC ; strain: ATCC 19542 ; read by: resazurin ; result: 10 µg/mL
CC[C@H]1OC(=O)[C@H](C)[C@@H](O[C@H]2C[C@@](C)(OC)[C@@H](O)[C@H](C)O2)[C@H](C)[C@@H](O[C@@H]2O[C@H](C)C[C@H](N(C)C)[C@H]2O)[C@](C)(OC)C[C@@H](C)C(=O)[C@H](C)[C@@H](O)[C@]1(C)O ; measure: MBC ; strain: ATCC 6841 ; result: >8 µg/mL
Clc1ccc2c(c1)nc1cc(Nc3ccccc3)c(=NC3CCCCC3)cc-1n2-c1ccccc1 ; measure: MIC ; strain: TB87 ; result: 2 µg/mL
CO[C@@]1(NC(=O)Cc2cccs2)C(=O)N2C(C(=O)O)=C(COC(N)=O)CS[C@@H]21 ; measure: MIC ; strain: AO5 ; result: 25 µg/mL
C[C@@H]1CN(c2c(F)c(N)c3c(=O)c(C(=O)O)cn(C4CC4)c3c2F)C[C@H](C)N1 ; measure: MBC90 ; strain: 25 isolates ; result: 2 µg/mL
CN(C)C(=O)CC(CSc1ccccc1)Nc1c(C(=O)N/N=C/c2cccnc2)cnc2cc(F)ccc12 ; measure: MIC ; strain: ATCC 19542 ; read by: resazurin ; result: 10 µg/mL
CO[C@@]1(NC(=O)CSCC#N)C(=O)N2C(C(=O)O)=C(CSc3nnnn3C)CS[C@@H]21 ; measure: MIC ; strain: 1004-8 ; result: 12.5 µg/mL
CC[C@H]1OC(=O)[C@H](C)[C@@H](O[C@H]2C[C@@](C)(OC)[C@@H](O)[C@H](C)O2)[C@H](C)[C@@H](O[C@@H]2O[C@H](C)C[C@H](N(C)C)[C@H]2O)[C@](C)(O)C[C@@H](C)CN(C)[C@H](C)[C@@H](O)[C@]1(C)O ; measure: MBC ; strain: ATCC 6841 ; result: >8 µg/mL

Again, the opening 2 rows:

| smiles | measure | strain | read by | result |
|---|---|---|---|---|
| NC[C@H]1O[C@H](O[C@H]2[C@H](O)[C@@H](O[C@H]3O[C@H](CO)[C@@H](O)[C@H](N)[C@H]3O)[C@H](N)C[C@@H]2N)[C@H](O)[C@@H](O)[C@@H]1O | MIC90 | 31 isolates |  | >64 µg/mL |
| CN(C)C(=O)CC(CSc1ccccc1)Nc1c(C(=O)N/N=C/c2cc(F)ccc2O)cnc2cccc(C(F)(F)F)c12 | MIC | ATCC 19542 | resazurin | >100 µg/mL |